This note sets out measurements from PubChem BioAssay (NCATS).

Experiment [1] in a line: qHTS profiling for inhibitors of Plasmodium falciparum proliferation (AID 504749). Also: nearly all actives have a fitted effect of over 60% in size. Also: potency is read from the fitted curve at half-maximal effect.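 As to activity, negative = inhibition: 0% = DMSO vehicle and full inhibition = artemisinin control.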 As to conditions: P. falciparum in erythrocytes, SYBR Green DNA, 72 h. Summed up: (§1)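 Quantitative HTS: compounds pinned into medium, infected erythrocytes added (0.3% parasitemia, 2.5% hematocrit), 72 h culture at 37 C under 5% CO2. Saponin/Triton lysis with SYBR Green I, overnight RT, then fluorescence read.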

A further experiment deals with 3D7. Described as above. As to conditions: P. falciparum in erythrocytes, SYBR Green DNA, 72 h; at 28.7 µM (top of the series) unless noted. Summed up:
as §1

In another experiment the test system is 7G8. Described as above. As to conditions: P. falciparum in erythrocytes, SYBR Green DNA, 72 h; series mostly up to 28.7 µM. An outline of the steps: as §1
The test system of the next experiment is AA1029. Described as above. As to conditions: P. falciparum in erythrocytes, SYBR Green DNA, 72 h; at 28.7 µM (top of the series) unless noted. Summed up: as §1
Another experiment concerns AS120. The description is as above. As to conditions: P. falciparum in erythrocytes, SYBR Green DNA, 72 h; series mostly up to 28.7 µM. Summed up: as §1
The test system of the next experiment is ATS189. The experiment is described as above. As to conditions: P. falciparum in erythrocytes, SYBR Green DNA, 72 h; series mostly up to 28.7 µM. Summed up:
as §1

A further experiment has as its system ATS95. The experiment is described as above. As to conditions: P. falciparum in erythrocytes, SYBR Green DNA, 72 h; series mostly up to 28.7 µM. An outline of the steps:
as §1

The next experiment deals with C2A. Described as above. As to conditions: P. falciparum in erythrocytes, SYBR Green DNA, 72 h; series mostly up to 28.7 µM. Summed up: as §1
For a further experiment, the system named is CP185. The description is as above. As to conditions: P. falciparum in erythrocytes, SYBR Green DNA, 72 h; series mostly up to 28.7 µM. Summed up: as §1
The test system of another experiment is CP191. The experiment is described as above. As to conditions: P. falciparum in erythrocytes, SYBR Green DNA, 72 h; at 28.7 µM (top of the series) unless noted. An outline of the steps:
as §1

The subject of a further experiment is CP192. Described as above. As to conditions: P. falciparum in erythrocytes, SYBR Green DNA, 72 h; at 28.7 µM (top of the series) unless noted. Summed up:
as §1

Another experiment deals with CP194. The experiment is described as above. As to conditions: P. falciparum in erythrocytes, SYBR Green DNA, 72 h; series mostly up to 28.7 µM. Summed up: as §1
Another experiment concerns CP201. The description is as above. As to conditions: P. falciparum in erythrocytes, SYBR Green DNA, 72 h; at 28.7 µM (top of the series) unless noted. Summed up: as §1
In a further experiment the test system is CP203. Described as above. As to conditions: P. falciparum in erythrocytes, SYBR Green DNA, 72 h; at 28.7 µM (top of the series) unless noted. Summed up: as §1
For another experiment, the system named is CP211. The experiment is described as above. As to conditions: P. falciparum in erythrocytes, SYBR Green DNA, 72 h; at 28.7 µM (top of the series) unless noted. Summed up: as §1
The nature of experiment [2]: Primary qHTS for inhibitors of MERS-S pseudo-typed particle cell entry (AID 1479149; calls by dose curve; also: nearly all actives have a fitted effect of over 60% in size; as to activity change, negative = inhibition: % is scaled to controls: 0 for no effect and ±100 for the full control effect). As to conditions: MERS-S pseudotyped particle entry, luciferase; activity change, negative = inhibition: at 57.1 µM (top of the series). A general note: Quantitative high-throughput screening tests each substance at several concentrations.
The nature of experiment [3]: Primary qHTS for Vero E6 cytotoxicity: counterscreen for inhibitors of SARS-S pseudo-typed particle cell entry (AID 1479150; calls by dose curve; as to activity change, negative = cytotoxicity: % is scaled to controls: 0 for no effect and ±100 for the full control effect). As to conditions: cell viability; activity change, negative = cytotoxicity: at 57.1 µM (top of the series).
Experiment [4] can be described thus: Primary qHTS for inhibitors of La Crosse Virus (LACV) - induced cell death in SH-SY5Y cells (AID 1508616).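 Also: top concentration of the series differs between compounds; 0% = infected DMSO wells and 100% = uninfected DMSO wells; higher means more rescue of cells from virus-induced death.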 As to conditions: SH-SY5Y LACV cytopathicity rescue, ATP luminescence, 6 d; at 4.29 µM (top of the series) unless noted. Summed up:
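SH-SY5Y, 6000 cells/well; cpd via pin tool in DMSO; LACV 0.01 MOI; 6 d 37C 5% CO2; ATPLite, 5 min RT; luminescence normalized to ±virus DMSO controls.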

The nature of experiment [5]: Cytotoxicity counterscreen for inhibitors of SARS-CoV-2 cell entry (AID 1645845; calls by dose curve; also: nearly all actives have a fitted effect of over 50% in size; as to activity change, negative = cytotoxicity: % is scaled to controls: 0 for no effect and ±100 for the full control effect). As to conditions: cell viability (SARS-CoV-2 entry assay cells); activity change, negative = cytotoxicity: at 57.1 µM (top of the series). Summed up:
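After a 15 min room-temperature ATPLite 1step step, luminescence reflected ATP remaining in HEK293-ACE2 cells exposed to compound for 1 h plus 48 h at 37 C, with percent activity set by cell and no-cell controls.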
(In general: A counterscreen serves to expose hits that act by an unwanted route or on another target.)

Experiment [6] is described as follows: Primary qHTS to identify inhibitors of SARS-CoV-2 cell entry (AID 1645846; calls by dose curve; also: nearly all actives have a fitted effect of over 45% in size). As to conditions: SARS-CoV-2 pseudovirus cell entry assay, luminescence; activity change, negative = inhibition: at 57.1 µM (top of the series). An outline of the steps: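 Using luciferase-reporting pseudoviruses carrying Wuhan-Hu-1 spike, the screen tracks entry into stably ACE2-expressing cells over 48 hr. Activity is expressed relative to spike particles versus particles lacking any fusion protein.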

The mark [7] stands for this setting: at 28.7 µM (top of the series), parasite line A.
[8] abbreviates: at 28.7 µM (top of the series), parasite line B.

Only a part is listed here, and it is no random draw. Inconclusive results are not listed. Some salts and complexes are drawn in separate pieces, as the source files them; their charges need not balance. Active and inactive are the calls of the source. Unless noted, calls follow the shape of the dose curve; as a rule, active = well fitted curve in the direction sought with a large enough effect; inconclusive = small, poorly fitted or top-dose-only effect, or another doubt; inactive = no such curve, though single readings can be large; an effect the other way counts as inactive or inconclusive.

`C/C1=C2N=C(/C=C3N=C(/C(C)=C4\[N-][C@@](C)([C@H]5N=C1[C@@](C)(CCC(=O)NC[C@H](C)OP(=O)([O-])O[C@@H]1[C@H](O)[C@H](n6cnc7cc(C)c(C)cc76)O[C@@H]1CO)[C@@H]5CC(N)=O)[C@](C)(CC(N)=O)[C@H]4CCC(N)=O)[C@@](C)(CC(N)=O)[C@@H]\3CCC(N)=O)C(C)(C)[C@@H]/2CCC(N)=O.[C-]#N.[Co+3]`: the activity, negative = inhibition in [1] (at 12.8 µM (top of the series), parasite line A) is inactive: 1.69%; in experiment [1] (at 12.8 µM (top of the series), parasite line B) it was inactive: 5.48%; in the experiment with 3D7, inactive: 0.574% [at 12.8 µM]; in the experiment on AA1029, inactive: 5.69% [at 12.8 µM]; with CP191, inactive: 3.58% [at 12.8 µM]; in the experiment with CP192, inactive: -5.33% [at 12.8 µM]. The figures for the activity, negative = inhibition in the experiment with CP201, with CP203 and with CP211 were inactive: -12.9% [at 12.8 µM], inactive: 11.3% [at 12.8 µM] and inactive: -1.13% [at 12.8 µM], respectively. Further, the Potency result in the experiment with 7G8, with AS120, in the experiment with ATS189, with ATS95, with C2A and in the experiment with CP185 was “inactive” each time. The Potency entry in the experiment with CP194 is “inactive”.
`CCOP(=O)(CC)Oc1ccc([N+](=O)[O-])cc1` (stereo not drawn): the compound was called inactive in experiment [2] and in [3]. Further, in [4], the activity change was inactive: -25.5%. Also, the activity change, negative = cytotoxicity in [5] is inactive: -12.2%.
For the compound `OCCSCCO`, the activity change in [4] was inactive: 12.3%.
As for `O=[N+]([O-])c1cccc([N+](=O)[O-])c1`, the activity change, negative = inhibition in [2] was inactive: -21.2%. Further, the activity change, negative = cytotoxicity in experiment [3] was inactive: 0.987%. The activity change in [4] is inactive: 8.1% [at 8.54 µM]. Further, in experiment [6], the outcome was inactive. In addition, the activity, negative = inhibition in experiment [1] (setting [7]) was inactive: -5.61%; in experiment [1] (setting [8]) it was inactive: -2.4%; in the experiment with 3D7, inactive: -9.48%; with AA1029, inactive: 5.45%; in the experiment with CP191 it was inactive: -2.46%; with CP192 it was inactive: 1.87%. The activity, negative = inhibition is inactive: -1.1% in the experiment on CP201, inactive: 4.31% in the experiment on CP203 and inactive: -0.423% with CP211. The Potency result with 7G8, with AS120, in the experiment with ATS189, with ATS95, in the experiment with C2A and with CP185 was “inactive” each time. Besides, the Potency entry in the experiment on CP194 was “inactive”.
`Cc1cccc([N+](=O)[O-])c1[N+](=O)[O-]`: the activity change in experiment [4] is inactive: 2.59% [at 8.54 µM].
Consider `C/C1=C2N=C(/C=C3N=C(/C(C)=C4\[N-][C@@](C)([C@@H]5N=C1[C@](C)(CCC(=O)NC[C@@H](C)OP(=O)([O-])O[C@H]1[C@@H](O)[C@@H](n6cnc7cc(C)c(C)cc76)O[C@@H]1CO)[C@H]5CC(N)=O)[C@@](C)(CC(N)=O)[C@@H]4CCC(N)=O)[C@@](C)(CC(N)=O)[C@@H]\3CCC(N)=O)C(C)(C)[C@@H]/2CCC(N)=O.[C-]#N.[Co+3]`, for which the call in experiment [2] and in experiment [5] was inactive. Besides, in experiment [3], the activity change, negative = cytotoxicity is inactive: -3.91%. In addition, the activity change in experiment [4] is inactive: 3.24%. The activity change, negative = inhibition in experiment [6] is -19.4%.
Consider `CC(C)OP(=O)(F)OC(C)C`, for which the compound was classed as inactive in experiment [2], in [3] and in [5]. Further, the activity change, negative = inhibition in experiment [6] was -25.3%. Moreover, the activity, negative = inhibition is inactive: -8.69% in [1] (setting [7]); inactive: 14.1% in experiment [1] (setting [8]); inactive: 0.389% in the experiment on 3D7; inactive: -4.42% in the experiment with AA1029; inactive: 5.56% in the experiment on CP191; inactive: 5.58% in the experiment on CP192. For the same compound, the results for the activity, negative = inhibition with CP201, in the experiment on CP203 and in the experiment on CP211 were inactive: 4.93%, inactive: 4.88% and inactive: 0.725%, respectively. Further, the Potency result in the experiment with 7G8, in the experiment on AS120, with ATS189, in the experiment on ATS95, in the experiment on C2A and in the experiment on CP185 was “inactive” in each case. Besides, the Potency result in the experiment with CP194 was “inactive”.
Consider `O=[N+]([O-])OCC(CO[N+](=O)[O-])(CO[N+](=O)[O-])CO[N+](=O)[O-]`, for which the activity change, negative = cytotoxicity in experiment [5] is inactive: -0.125%. Further, the activity change, negative = inhibition in experiment [6] is -13.5%. Moreover, the Potency in [1] (parasite line A) is active: 8.91 µM; in experiment [1] (parasite line B), active: 12.6 µM; with 7G8 it was active: 5.01 µM; in the experiment with AS120, active: 7.08 µM; in the experiment with ATS189, active: 5.62 µM; in the experiment with ATS95, active: 5.62 µM. Also, the values for the Potency in the experiment with C2A, with CP185 and in the experiment on CP194 were active: 6.31 µM, active: 4.47 µM and active: 12 µM, respectively. Also, the activity, negative = inhibition in the experiment with AA1029 was inactive: -19.2%; in the experiment with CP192, inactive: -18.5%; with CP211, inactive: -15.4%.
As to `C/C1=C2/N=C(C(CC(N)=O)C2(C)CCC(=O)NCC(C)OP(=O)([O-])OC2C(CO)OC(n3cnc4cc(C)c(C)cc43)C2O)C2(C)N=C(/C(C)=C3N=C(/C=C4N=C1C(CCC(N)=O)C\4(C)C)C(CCC(N)=O)C/3(C)CC(N)=O)C(CCC(N)=O)C2(C)CC(N)=O.[C-]#N.[Co]` (stereo not drawn), the activity change, negative = cytotoxicity in experiment [5] was inactive: -3.58%. The activity change, negative = inhibition in [6] is -13.3%.
